Source: PMC4691232 (Chemistry & Biology, 2015)
Where “and” joins values, the source holds several entries; their conditions need not be identical. Equal entries are not always repeated.

Protein sequences, listed by entry. Tags and fused reporters are not part of them. Residues count along the entry.
UniProt H7C745, 1-346: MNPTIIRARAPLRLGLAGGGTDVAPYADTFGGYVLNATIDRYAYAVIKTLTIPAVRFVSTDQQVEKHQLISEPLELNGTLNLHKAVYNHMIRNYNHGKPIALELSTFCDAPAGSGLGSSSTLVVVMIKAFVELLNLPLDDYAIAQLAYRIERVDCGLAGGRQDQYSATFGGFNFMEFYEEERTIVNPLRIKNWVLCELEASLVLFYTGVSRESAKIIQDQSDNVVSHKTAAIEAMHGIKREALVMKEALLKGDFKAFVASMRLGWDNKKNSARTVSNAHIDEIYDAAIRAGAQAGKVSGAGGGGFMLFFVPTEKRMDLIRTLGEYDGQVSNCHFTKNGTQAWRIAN

Target: WcbL (Burkholderia pseudomallei, UniProt H7C745)

For `Nc1ncnc2c1ncn2[C@@H]1OC(COP(=O)(O)OP(=O)(O)O)[C@@H](O)[C@H]1O` (stereo partly shown), the Ki was 411 µM and 490 µM.
